Anti-infective test results gathered from many reports (values: NIAID ChemDB through PubChem).

Shared fields: whole-cell or culture tests; organism: Mycobacterium avium; endpoint: MIC

Lines come from different laboratories, so protocols vary. Blank or dashed fields: not listed here.

compound	strain or isolate	setting	result
CCCCC(CC)CN(CC(CC)CCCC)C[C@H]1O[C@H](O[C@H]2O[C@H](CN(CC(CC)CCCC)CC(CC)CCCC)[C@@H](O)[C@H](O)[C@H]2O)[C@H](O)[C@@H](O)[C@@H]1O	NJ211		8 µg/mL
O=C(NCc1ccc(Br)cc1)c1ccc(Br)cc1O	MY330/88		16 µg/mL
Fc1ccc(/C(Cn2ccnc2)=N/OC/C=C/c2ccccc2)cc1	CIP103317		>16 µg/mL
Nc1ccc(Cl)cc1C(=O)Nc1ccc(Cl)c(Cl)c1	MY330/88		31 µM
O=C(Nc1ccc(N2CCSCC2)cc1)c1ccc(Cl)cc1	103317		92.3 µM
Cc1ccc(CSc2nnn(-c3ccccc3)n2)cc1	CNCTC MY330/88		250 µM
CC(C)[C@H](NC(=O)OCc1ccccc1)c1cnc(-c2ccccc2)[nH]1	MY330/88	21 d	>500 µM
c1ccc(-c2ccc(CNc3ccccc3N3CCOCC3)cc2)cc1	103317		89.4 µM
CCCCCc1ccc(NC(=O)c2cc(Br)cc(Br)c2O)cc1	MY330/88		62.5 µM
Cc1ccc(-n2nnc3ccccc3c2=O)cc1	MY330/88		>125 µM
CCCCCOc1ccc(NC(=O)OCCC[NH+]2CCCCC2)cc1	MY330/88		32 µM
O=c1oc2ccc(Br)cc2c(=O)n1-c1ccc(F)cc1	CNCTC MY330/88		31 µM
CCSc1ncnc2ccccc12	D 5/93		500 µM
CCCCCCNC[C@H]1O[C@H](O[C@H]2O[C@H](CNCCCCCC)[C@@H](O)[C@H](O)[C@H]2O)[C@H](O)[C@@H](O)[C@@H]1O	NJ168		>128 µg/mL
Clc1ccc(/C(Cn2ccnc2)=N\OCc2ccc(-c3ccccc3)cc2)c(Cl)c1	CIP103317		16 µg/mL
COc1ccc(CSc2nnn(-c3ccc(Cl)cc3)n2)cc1	CNCTC MY330/88		62.5 µM
N#Cc1ccc(-n2c(=O)oc3ccc(Br)cc3c2=O)cc1	CNCTC MY330/88		8 µM
CCCCCCOc1ccccc1NC(=O)OCCN1CCCCCC1	MY330/88		32 µM
O=C(Nc1ccc(Br)cc1)c1ncccc1O	CNCTC MY330/88		32 µM
CC[C@@H](C)[C@H](NC(=O)OCc1ccccc1)c1cnc(-c2ccc([N+](=O)[O-])cc2)[nH]1	MY330/88	14 d	>125 µM
Oc1ccccc1C(=S)NCc1ccccc1	MY330/88		1 µg/mL
CCCCCOc1ccccc1NC(=O)OCC[NH+]1CCCC1	MY330/88		125 µM
CCCc1ccc(NC(=O)c2cc(Br)ccc2O)cc1	MY330/88		16 µM
O=C(Nc1cccc(Cn2ccnc2)c1)c1ccc(-c2ccccc2)cc1	103317		>16 µg/mL
c1ccc(CSc2ncnc3ccccc23)cc1	CNCTC MY80/72		63 µM
O=C(Nc1ccccc1)c1ncccc1S	CNCTC MY330/88		62.5 µM
CC(C)c1ccc(NC(=O)c2cc(Cl)ccc2N)cc1	MY330/88		31 µM
COc1ccc(CSc2nnn(-c3ccc(Br)cc3)n2)cc1	CNCTC MY330/88		32 µM
Nc1ccc(Cl)cc1C(=O)Nc1ccc(Br)cc1	MY330/88		31 µM
COc1ccccc1NC(=O)OCCC[NH+]1CCCCC1	MY330/88		1000 µM
Cc1c(C)c(C)[c-](C)c1C.N[C@@H](Cc1ccccc1)C(=O)[O-].[Cl][Ir+2]	A5		>250 µg/mL
NC(N)=NC[C@H]1O[C@H](O[C@H]2O[C@H](CN=C(N)N)[C@@H](O)[C@H](O)[C@H]2O)[C@H](O)[C@@H](O)[C@@H]1O	NJ211		>128 µg/mL
CCCCCCCCOc1ccccc1NC(=O)OCCC[NH+]1CCCCC1	MY330/88		8 µM
Fc1ccc(/C(Cn2ccnc2)=N/OCc2ccccc2)cc1	103317		25.9 µM
CC(=O)Nc1ccc(/C=N/NC(N)=S)cc1	1854		0.08 µg/mL
O=C(Nc1ccc(Br)cc1)c1ncccc1S	CNCTC MY330/88		16 µM
CCCCCCCc1ccc(NC(=O)c2ccc(Cl)cc2O)cc1	MY330/88		4 µM
CC(C)N=C(N)/N=C(\N)NOCCCOc1cc(Cl)c(Cl)cc1Cl	LPR		38.4 µg/mL
CCCOc1ccccc1NC(=O)OCCN1CCCCC1	MY330/88		1000 µM
COc1ccc(O)c(C(=O)NCc2cccc(Cl)c2)c1	MY330/88		62.5 µg/mL
COc1ccc(NC(=O)OCCC[NH+]2CCCCC2)cc1	MY330/88		1000 µM
CCCCCCCCCCCCN(CCCCCCCCCCCC)C[C@H]1O[C@H](O[C@H]2O[C@H](CN(CCCCCCCCCCCC)CCCCCCCCCCCC)[C@@H](O)[C@H](O)[C@H]2O)[C@H](O)[C@@H](O)[C@@H]1O	NJ168		>128 µg/mL
O=C(OCc1ccccc1)N1CCC[C@H]1c1cnc(-c2ccc([N+](=O)[O-])cc2)[nH]1	MY330/88	14 d	>250 µM
C=CCSc1ncnc2ccccc12	CNCTC MY80/72		>1000 µM
C(=C\c1ccccc1)/CNc1ccccc1N1CCSCC1	103317		98.8 µM
COc1ccc(NC(=O)c2ccccc2O)cc1	CNCTC MY330/88		62.5 µM
CCCCCCCc1ccc(NC(=O)c2cc(Cl)ccc2O)cc1	MY330/88		8 µM
O=C(Nc1cccc(Cl)c1)c1ncccc1S	CNCTC MY330/88		62.5 µM
CC(C)(C)c1ccc(NC(=O)c2cc(Cl)ccc2O)cc1	MY330/88		32 µM
CC(C)(C)n1cc(C(=O)O)c(=O)c2cc(F)c(N3CCNCC3)nc21	RG4		0.5 µg/mL
CN1CCN(Cc2ccc(NC(=O)c3ccc(Cl)cc3)cc2)CC1	103317		8 µg/mL
O=c1oc2ccc(F)cc2c(=O)n1-c1ccc(Cl)cc1	CNCTC MY330/88		8 µM
CCCCCCCCCCOc1ccccc1NC(=O)OCCN(C)C	MY330/88		8 µM
CCOc1cccc(NC(=O)OCCC[NH+]2CCCCC2)c1	MY330/88		250 µM
Clc1ccc(/C(Cn2ccnc2)=N/OC/C=C/c2ccccc2)c(Cl)c1	CIP103317		>16 µg/mL
CCCCCOc1ccccc1NC(=O)OCCN1CCOCC1	MY330/88		125 µM
CC[C@H]1OC(=O)[C@H](C)C(=O)[C@H](C)[C@@H](O[C@@H]2O[C@H](C)C[C@H](N(C)C)[C@H]2O)[C@](C)(OC)C[C@@H](C)C(=O)[C@H](C)[C@H]2N(CCCCn3cnc(-c4cccnc4)c3)C(=O)O[C@]12C	ATCC 25291		1.25 µg/mL
O=c1oc2ccc(F)cc2c(=O)n1-c1cccc([N+](=O)[O-])c1	CNCTC MY330/88		16 µM
Clc1ccc(/C(Cn2ccnc2)=N\OCc2ccc(-c3ccccc3)cc2)c(Cl)c1	103317		18.3 µM
Clc1ccc(/C(Cn2ccnc2)=N\OCc2ccccc2)cc1	CIP103317		0.5 µg/mL
Oc1cc(Br)ccc1C(=S)NCc1ccc(Cl)c(Cl)c1	MY330/88		16 µg/mL
CC(C)CSc1ncnc2ccccc12	CNCTC MY80/72		250 µM
CCC(C)c1ccc(NC(=O)c2cc(Cl)ccc2N)cc1	MY330/88		16 µM
CCCCC(CC)CNC[C@H]1O[C@H](O[C@H]2O[C@H](CO)[C@@H](O)[C@H](O)[C@H]2O)[C@H](O)[C@@H](O)[C@@H]1O	NJ3404		>128 µg/mL
Cc1ccc(-n2nnc(SCc3ccccc3)n2)cc1	CNCTC MY330/88		62.5 µM
O=c1oc2ccc(Cl)cc2c(=O)n1-c1ccc(Cl)c(Cl)c1	CNCTC MY330/88		8 µM
CCCCCCCCc1ccc(NC(=O)c2cc(Br)ccc2O)cc1	MY330/88		8 µM
CC(C)[C@H](NC(=O)OCc1ccccc1)c1cnc(-c2ccc([N+](=O)[O-])cc2)[nH]1	MY330/88	21 d	>125 µM
O=C(NCc1cccc([N+](=O)[O-])c1)c1ncccc1S	CNCTC MY330/88		16 µM
CCCCCCCCCCCCCCCCSc1ncnc2ccccc12	CNCTC MY80/72		>1000 µM
Cc1cccc(C(N)=Nc2nc(-c3ccccn3)cc3ccccc23)c1	101		2 µg/mL
c1ccc(-c2ccc(CNc3ccc(-n4ccnc4)cc3)cc2)cc1	103317		23.6 µM
O=C(NCc1ccc(F)cc1)c1ncccc1S	CNCTC MY330/88		16 µM
Clc1ccc(/C(Cn2ccnc2)=N\OC/C=C/c2ccccc2)cc1	CIP103317		8 µg/mL
CCCCCCCCCCCCCCCCS(=O)(=O)NC[C@H]1O[C@H](O[C@H]2O[C@H](CNS(=O)(=O)CCCCCCCCCCCCCCCC)[C@@H](O)[C@H](O)[C@H]2O)[C@H](O)[C@@H](O)[C@@H]1O	NJ3404		>64 µg/mL
CCOc1c(N2CCC(C(C)(C)N)C2)c(F)cc2c(=O)c(C(=O)O)cn(C3CC3)c12	SMT		2 µg/mL
CCCCCCc1ccc(NC(=O)c2cc(Br)ccc2O)cc1	MY330/88		8 µM
CN1CCN(Cc2cccc(NC(=O)c3ccc(Cl)cc3)c2)CC1	103317		>16 µg/mL
Clc1ccc(/C(Cn2ccnc2)=N/OC/C=C/c2ccccc2)cc1	103317		22.7 µM
O=C(Nc1ccc(CN2CCOCC2)cc1)c1ccc(Cl)cc1	103317		>16 µg/mL
O=c1oc2ccc([N+](=O)[O-])cc2c(=O)n1-c1cccc(F)c1	CNCTC MY330/88		250 µM
CCCCCCCCCCCCOc1ccccc1NC(=O)OCCC[NH+]1CCCCC1	MY330/88		8 µM
Clc1ccc(C(Cn2ccnc2)NCc2cccc3ccccc23)c(Cl)c1	103317		80.8 µM
CCCCCCc1ccc(NC(=O)c2cc(Br)cc(Br)c2O)cc1	MY330/88		62.5 µM

For reference, 10 entries again:

compound	strain or isolate	setting	result
c1ccc(-c2ccc(CNc3ccccc3N3CCOCC3)cc2)cc1	103317		89.4 µM
COc1ccc(CSc2nnn(-c3ccc(Br)cc3)n2)cc1	CNCTC MY330/88		32 µM
CN1CCN(Cc2cccc(NC(=O)c3ccc(Cl)cc3)c2)CC1	103317		>16 µg/mL
CCCCCCCCCCCCOc1ccccc1NC(=O)OCCC[NH+]1CCCCC1	MY330/88		8 µM
NC(N)=NC[C@H]1O[C@H](O[C@H]2O[C@H](CN=C(N)N)[C@@H](O)[C@H](O)[C@H]2O)[C@H](O)[C@@H](O)[C@@H]1O	NJ211		>128 µg/mL
Cc1ccc(-n2nnc3ccccc3c2=O)cc1	MY330/88		>125 µM
CC(C)CSc1ncnc2ccccc12	CNCTC MY80/72		250 µM
Cc1cccc(C(N)=Nc2nc(-c3ccccn3)cc3ccccc23)c1	101		2 µg/mL
O=C(OCc1ccccc1)N1CCC[C@H]1c1cnc(-c2ccc([N+](=O)[O-])cc2)[nH]1	MY330/88	14 d	>250 µM
COc1ccc(NC(=O)OCCC[NH+]2CCCCC2)cc1	MY330/88		1000 µM